A mixed list of measured activities; the numbers were collected in NIAID ChemDB.

Shared fields: growth or infection tests; organism: HIV-1

Blank or dashed fields: not listed here. ECn: concentration that inhibits the pathogen or its effect by n%. a–b is a range or a potency band. Neighbouring rows are from separate reports.

compound,mutations,method,endpoint,cell line,strain,value
CCc1c(Sc2cc(C)cc(C)c2)n(COCc2ccccc2)c(=S)[nH]c1=O,RT-E138K,syncytia,EC50,CEM,IIIB,0.01 µM
C=C(c1ccccc1)c1c(C)c(=O)[nH]c(=O)n1COCc1ccccc1,F227L + V106A,MTT,EC50,MT-4,IIIB,43.65 µM
CC(C)c1c(Sc2ccccc2)n(COCCO)c(=O)[nH]c1=O,,syncytia,EC50,CEM,IIIB,0.028 µM
Cc1cc(/C=C/C#N)cc(C)c1Oc1nc(NC2CCN(Cc3cccc(Cl)c3)CC2)nc2ccsc12,NNRTI-resistant (RT E138K),MTT,EC50,MT-4,IIIB,0.131 µM
CC(C)[C@@H](CN[C@]12CC[C@@H](C3(C)CC3)[C@@H]1[C@H]1CC[C@@H]3[C@@]4(C)CC[C@H](OC(=O)[C@H]5C[C@@H](C(=O)O)C5(C)C)C(C)(C)[C@@H]4CC[C@@]3(C)[C@]1(C)CC2)N1CCS(=O)(=O)CC1,V7A,p24 / ELISA,EC50,MT-4,NL4-3,<0.05 µM
CNC(=O)[C@]1(C)Cn2c(=O)c(C(=O)NCCC#N)c(O)c3ncc(Cc4ccc(F)cc4)c(c32)O1,,ATP / luminescence,EC50,MT-2,IIIB,0.0314 µM
CC(C)COC(=O)c1cccn1S(=O)(=O)c1cc(Cl)ccc1N,,cytopathic effect / MTT,EC50,MT-4,IIIB,1.6 µM
C[C@@H](O)[C@@H](CN[C@]12CC[C@@H](C3(C)CC3)[C@@H]1[C@H]1CC[C@@H]3[C@@]4(C)CC[C@H](OC(=O)[C@H]5C[C@@H](C(=O)O)C5(C)C)C(C)(C)[C@@H]4CC[C@@]3(C)[C@]1(C)CC2)N1CCS(=O)(=O)CC1,,p24 / ELISA,EC50,MT-4,NL4-3,<0.01 µM
Cc1ccnc2c1NC(=O)c1cccnc1N2C1CC1,A17 (K103N Y181C),MTT,EC50,MT-4,,80 µM
CCN1c2ncc(CCOc3ccc(-c4ccc(C(=O)O)c(Cl)c4)cc3C)cc2C(=O)N(C)c2cccnc21,RT-K103N Y181C,p24,EC50,C8166,,>0.05 µM
Nc1nc(NC2CC2)c2ncn([C@H]3CO[C@@H](CO)O3)c2n1,,RT activity,EC50,PBMC,RF,0.3 µM
CCNc1cccc(C2NC(=O)NC(CC)=C2C(=O)OCC2CCCCC2)c1,,p24 / ELISA,EC50,CEM,,≤1 µM
CC(=O)c1c(C)nc(-c2ccccc2)nc1NC(=O)c1ccccc1,,GFP / fluorescence,EC50,HeLa,7324-1,1.2 µM
Nc1ncnc2c1ncn2[C@@H]1O[C@H](CO)[C@H]1CO,RT-V75I,RT activity,EC50,MT-2,HXB2(RT-V75I) Recombinant,1.7 µM
Cc1ccccc1CN1CCC(Nc2nc(Oc3c(C)cc(/C=C/C#N)cc3C)c3sccc3n2)CC1,NNRTI-resistant (RT L100I),MTT,EC50,MT-4,IIIB,0.0472 µM
Cc1cn([C@H]2C=C[C@@H](CO)O2)c(=O)[nH]c1=O,RT-A62V V75I F77C F116Y Q151M,p24,EC50,MT-4,XM-Q151M,<22 µM
Cc1cc(C#N)cc(C)c1Oc1nc(NC2CCN(Cc3ccc(S(N)(=O)=O)cc3)CC2)nc2sccc12,NNRTI-resistant (RT Y181C),MTT,EC50,MT-4,IIIB,0.00764 µM
CCOCn1c(Cc2cc(C)cc(C)c2)c(CC)c(=O)[nH]c1=O,RT-Y188H,syncytia,EC50,CEM,IIIB,1 µM
CC1(C)CC=C(c2cn(-c3nccc(C(=O)NC4CCC(N5CC6CCC(C5)O6)CC4)n3)c3ccc(F)c([C@H](OC(C)(C)C)C(=O)O)c23)CC1,E170K,luminescence,EC50,MT-4,NL4-3,0.0037 µM
CC(C)S(=O)(=O)N1CCN([C@H](CN[C@]23CC[C@@H](C4(C)CC4)[C@@H]2[C@H]2CC[C@@H]4[C@@]5(C)CC[C@H](OC(=O)[C@H]6C[C@@H](C(=O)O)C6(C)C)C(C)(C)[C@@H]5CC[C@@]4(C)[C@]2(C)CC3)[C@@H](C)O)CC1,,p24 / ELISA,EC50,MT-2,92HT599,<0.01 µM
COCCNC(=O)c1c(O)c2ncc(Cc3ccc(F)cc3)c3c2n(c1=O)C[C@H](CN1CCCC1)O3,,ATP / luminescence,EC50,MT-2,IIIB,0.021 µM
Nc1nc(NC2CC2)c2ncn([C@H]3C=C[C@@H](CO)C3)c2n1,RT-A62V V75I F77C F116Y Q151M,p24,EC50,MT-4,XM-Q151M,<4.6 µM
COCCOCCOCCO[C@H](C)[C@@H](CN[C@]12CC[C@@H](C3(C)CC3)[C@@H]1[C@H]1CC[C@@H]3[C@@]4(C)CC[C@H](OC(=O)[C@H]5C[C@@H](C(=O)O)C5(C)C)C(C)(C)[C@@H]4CC[C@@]3(C)[C@]1(C)CC2)N1CCS(=O)(=O)CC1,,p24 / ELISA,EC50,MT-2,92HT599,<0.01 µM
Cc1cccc(C(C)c2c(C(C)C)c(=O)[nH]c(=O)n2COCc2ccccc2)c1,F227L + V106A,MTT,EC50,MT-4,IIIB,5.45 µM
Cc1cc(C)cc(Sc2c(C(C)C)c(=O)[nH]c(=S)n2COCCO)c1,Nevirapine resistant (RT Y181C),syncytia,EC50,CEM,IIIB,0.34 µM
CCN1c2ncc(CCOc3ccc(S(=O)(=O)Nc4ccc(C(=O)O)cc4)cc3C)cc2C(=O)N(C)c2cccnc21,,p24,EC50,C8166,IIIB,>0.05 µM
Cc1cc(/C=C/C#N)cc(C)c1Oc1nc(NC2CCN(Cc3ccccn3)CC2)nc2ccsc12,NNRTI-resistant (RT F227L V106A),MTT,EC50,MT-4,IIIB,0.0267 µM
CCC1=C(C(=O)N(C)OC)C(c2cccc(O)c2)NC(=O)N1,,p24 / ELISA,EC50,CEM,,>5 µM
N#CC1=CC2Nc3ccccc3C2N(c2ccc([N+](=O)[O-])cc2)C1=O,,GFP / fluorescence,EC50,HeLa,O-MVP5180,0.001 µM
CC(C)S(=O)(=O)N1CCN([C@@H](C)CN[C@]23CC[C@@H](C4(C)CC4)[C@@H]2[C@H]2CC[C@@H]4[C@@]5(C)CC[C@H](OC(=O)[C@H]6C[C@@H](C(=O)O)C6(C)C)C(C)(C)[C@@H]5CC[C@@]4(C)[C@]2(C)CC3)CC1,V7A,p24 / ELISA,EC50,MT-4,NL4-3,<0.05 µM
CC(C)CN(C[C@@H](O)[C@H](Cc1ccccc1)NC(=O)O[C@H]1CCOC1)S(=O)(=O)c1ccc(N)cc1,L10F I47I/V,reporter gene,EC50,MT-4,T20760,1496 nM
CCc1c(Sc2cc(C)cc(C)c2)n(COCCO)c(=S)[nH]c1=O,RT-Y188H,syncytia,EC50,CEM,IIIB,≥10 µM
CNC(=O)c1c(O)c2ncc(Cc3ccc(F)cc3)c3c2n(c1=O)C[C@](C)(C(=O)NCC(F)(F)F)O3,,ATP / luminescence,EC50,MT-2,IIIB,0.024 µM
CCC1=C(C2=NC[C@@H](C3CCCCC3)O2)[C@H](c2cccc(O)c2)NC(=O)N1,,p24 / ELISA,EC50,CEM,,≤1 µM
N=C1Sc2ccccc2C2=NCCCN12,,β-galactosidase,EC50,TZM-bl,92UG024,0.33 µM
CCN1c2ncc(CCOc3ccc(-c4csc(N)n4)cc3C)cc2C(=O)N(C)c2cccnc21,RT-K103N Y181C,p24,EC50,C8166,,<0.01 µM
CCCC(=O)Nc1ccc(C2NC(=O)NC(CC)=C2C(=O)OCC2CCCCC2)cc1,,p24 / ELISA,EC50,CEM,,≤1 µM
COCCOC(=O)c1cccn1S(=O)(=O)c1cc(Cl)ccc1N,,cytopathic effect / MTT,EC50,MT-4,IIIB,3.2 µM
CCN1c2ncc(CCOc3ccc(-n4nc(C(=O)O)cc4C)cc3C)cc2C(=O)N(C)c2cccnc21,,p24,EC50,C8166,IIIB,>0.05 µM
CCOCn1c(Sc2cc(C)cc(C)c2)c(CC)c(=O)[nH]c1=S,RT-Y181C,syncytia,EC50,CEM,IIIB,0.09 µM
C=C(c1cc(OC)cc(OC)c1)c1c(C)c(=O)[nH]c(=O)n1COCc1ccccc1,E138K,MTT,EC50,MT-4,IIIB,20.28 µM
CCC1=C(C(=O)OCC2CCCCC2)C(c2cc(F)cc(F)c2)NC(=O)N1,,p24 / ELISA,EC50,CEM,,>5 µM
COc1c(O)cc2ccc(=O)oc2c1-c1c(O)ccc2ccc(=O)oc12,,MTT,EC50,MT-4,IIIB,8.7 µM
CC1([C@@H]2CC[C@]3(NCC(C)(C)N4CCS(=O)(=O)CC4)CC[C@]4(C)[C@H](CC[C@@H]5[C@@]6(C)CC[C@H](OC(=O)[C@H]7C[C@@H](C(=O)O)C7(C)C)C(C)(C)[C@@H]6CC[C@]54C)[C@@H]23)CC1,V7A,p24 / ELISA,EC50,MT-4,NL4-3,>0.1 µM
Cc1cn([C@H]2C=C[C@@H](CO)O2)c(=O)[nH]c1=O,,cytopathic effect / MTT,EC50,MT-4,RD 22wt-RT,0.3 µM
CCOCn1c(Cc2ccccc2)c(C(C)C)c(=O)[nH]c1=O,RT-Y188H,syncytia,EC50,CEM,IIIB,17 µM
CC1(O)COc2c(Cc3ccc(F)cc3)cnc3c(O)c(C(=O)NCCO)c(=O)n(c23)C1,,ATP / luminescence,EC50,MT-2,IIIB,0.002 µM
CC(C)[C@H](CN[C@]12CC[C@@H](C3(C)CC3)[C@@H]1[C@H]1CC[C@@H]3[C@@]4(C)CC[C@H](OC(=O)[C@H]5C[C@@H](C(=O)O)C5(C)C)C(C)(C)[C@@H]4CC[C@@]3(C)[C@]1(C)CC2)N1CCS(=O)(=O)CC1,,p24 / ELISA,EC50,MT-4,NL4-3,>0.05 µM
COc1ccc(C(C)c2c(C)c(=O)[nH]c(=O)n2COCc2ccccc2)cc1OC,,MTT,EC50,MT-4,IIIB,>186 µM
C=C(C)[C@@H]1CC[C@]2(NC[C@H]([C@@H](C)O)N3CCS(=O)(=O)CC3)CC[C@]3(C)[C@H](CC[C@@H]4[C@@]5(C)CC[C@H](OC(=O)C6CC(C(=O)O)C6(C)C)C(C)(C)[C@@H]5CC[C@]43C)[C@@H]12,,p24 / ELISA,EC50,MT-2,92HT599,<0.01 µM
NC(=O)c1cccn1S(=O)(=O)c1ccccc1[N+](=O)[O-],,cytopathic effect / MTT,EC50,MT-4,IIIB,>200 µM
Cc1nc2ccccc2c(-c2cc(F)c3c(c2C)CCCO3)c1[C@H](OC(C)(C)C)C(=O)O,T124A/T125A,luminescence,EC50,MT-4,NL4-3,0.0079 µM
CCC1=C(C(=O)OCC2CCCCC2)C(c2ccc(NC(C)=O)cc2)NC(=O)N1,,p24 / ELISA,EC50,CEM,,≤1 µM
CCOC(=O)c1ccn(S(=O)(=O)c2cc(Cl)ccc2N)c1,,cytopathic effect / MTT,EC50,MT-4,IIIB,15 µM
Cc1cc(C)cc(Cc2c(C(C)C)c(=O)[nH]c(=O)n2COCCO)c1,RT-L100I,syncytia,EC50,CEM,IIIB (TIBO 82150) (RT-L100I),0.8 µM
CCC1=C(c2nc(C3CCCCC3)cs2)C(c2ccc3ccccc3c2Br)NC(=O)N1,,p24 / ELISA,EC50,CEM,,1–5 µM
Cc1cc(/C=C/C#N)cc(C)c1Oc1nc(NC2CCN(Cc3cccc(Br)c3)CC2)nc2ccsc12,NNRTI-resistant (RT Y181C),MTT,EC50,MT-4,IIIB,0.128 µM
CC(C)[C@H](NC(=O)OCc1ccccn1)C(=O)N[C@@H](Cc1ccccc1)[C@@H](O)C[C@H](Cc1ccccc1)NC(=O)OCc1cccnc1,PR-V82T,p24,EC95,MT-4,NL4-3,1.5 µM
CC(C)c1c(Sc2ccccc2)n(COCCO)c(=S)[nH]c1=O,RT-Y181C,syncytia,EC50,CEM,IIIB,6 µM
CCCc1cc(=O)oc2c3c(c4c(c12)OC(C)(C)CC4)O[C@H](C)[C@@H](C)C3=O,RT-T139I,cytopathic effect / XTT,EC50,,,>100 µM
C[C@@H](CN[C@]12CC[C@@H](C3(C)CC3)[C@@H]1[C@H]1CC[C@@H]3[C@@]4(C)CC[C@H](OC(=O)[C@H]5C[C@@H](C(=O)O)C5(C)C)C(C)(C)[C@@H]4CC[C@@]3(C)[C@]1(C)CC2)N1CCS(=O)(=O)CC1,,p24 / ELISA,EC50,MT-4,NL4-3,<0.01 µM
Cc1cc(C#N)cc(C)c1Oc1nc(NC2CCC(NCc3ccc([N+](=O)[O-])cc3)CC2)nc2ccsc12,NNRTI-resistant (RT K103N),MTT,EC50,MT-4,IIIB,0.69 µM
Nc1ccc(Cl)cc1S(=O)(=O)n1cccc1C(=O)OCCO,,cytopathic effect / MTT,EC50,MT-4,IIIB,9 µM

The last 7 rows once more:

compound | mutations | method | endpoint | cell line | strain | value
Cc1cc(/C=C/C#N)cc(C)c1Oc1nc(NC2CCN(Cc3cccc(Br)c3)CC2)nc2ccsc12 | NNRTI-resistant (RT Y181C) | MTT | EC50 | MT-4 | IIIB | 0.128 µM
CC(C)[C@H](NC(=O)OCc1ccccn1)C(=O)N[C@@H](Cc1ccccc1)[C@@H](O)C[C@H](Cc1ccccc1)NC(=O)OCc1cccnc1 | PR-V82T | p24 | EC95 | MT-4 | NL4-3 | 1.5 µM
CC(C)c1c(Sc2ccccc2)n(COCCO)c(=S)[nH]c1=O | RT-Y181C | syncytia | EC50 | CEM | IIIB | 6 µM
CCCc1cc(=O)oc2c3c(c4c(c12)OC(C)(C)CC4)O[C@H](C)[C@@H](C)C3=O | RT-T139I | cytopathic effect / XTT | EC50 |  |  | >100 µM
C[C@@H](CN[C@]12CC[C@@H](C3(C)CC3)[C@@H]1[C@H]1CC[C@@H]3[C@@]4(C)CC[C@H](OC(=O)[C@H]5C[C@@H](C(=O)O)C5(C)C)C(C)(C)[C@@H]4CC[C@@]3(C)[C@]1(C)CC2)N1CCS(=O)(=O)CC1 |  | p24 / ELISA | EC50 | MT-4 | NL4-3 | <0.01 µM
Cc1cc(C#N)cc(C)c1Oc1nc(NC2CCC(NCc3ccc([N+](=O)[O-])cc3)CC2)nc2ccsc12 | NNRTI-resistant (RT K103N) | MTT | EC50 | MT-4 | IIIB | 0.69 µM
Nc1ccc(Cl)cc1S(=O)(=O)n1cccc1C(=O)OCCO |  | cytopathic effect / MTT | EC50 | MT-4 | IIIB | 9 µM